Data as given in PubChem BioAssay AID504761 (Drosophila RNAi Screening Center, 2011)

Purpose: 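Insect host genes that dengue virus relies on to spread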 (primary screen)
Cells: D.Mel-2 cells from Drosophila
Reagents: long dsRNA against Drosophila genes
Challenge: infection with dengue virus type 2; dose and infection time not stated
Measurement: 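Per well on two replicate plates, imaging gave the percent of cells positive for viral envelope protein, ranked by infection, and a nuclear count of cells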
Scale: infection score: higher = more virus-infected cells; cell count: higher = more cells in the well
Rule for the call: 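Very low infection ranking in both replicate wells (chance probability at most 0.065), then a retest showing infection dropped 1.5-fold or more at p below 0.05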
Calls: active = confirmed: knock-down lowers infection; inactive = not picked or not confirmed
The screen tested about 22,000 reagents; shown is an unselected part of those that have a named target and a result. Over the whole deposit, 116 (0.52%) were called active. 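Calls depend on retest data that are not deposited; infection was ranked per plate without normalising between plates; the unit of the infection score is not given.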 Raw values vary from plate to plate and are shown uncorrected. The numbers tell different reagents against one gene apart. The record does not give: the amount of reagent, the time to read-out.

| Gene | dsRNA no. | infection score, replicate 1 | infection score, replicate 2 | cell count, replicate 1 | cell count, replicate 2 | call |
| --- | --- | --- | --- | --- | --- | --- |
| EbpIII (Ejaculatory bulb protein III) | 1 | 4.35 | 0.62 | 1103 | 485 | inactive |
| Grip128 | 1 | 4.86 | 2.89 | 6444 | 6472 | inactive |
| CNMaR (CNMamide Receptor) | 1 | 3.02 | 2.95 | 6258 | 6642 | inactive |
| CNMaR (CNMamide Receptor) | 2 | 2.83 | 2.77 | 6191 | 6091 | inactive |
| CG32488 | 1 | 2.06 | 2.59 | 6459 | 6400 | inactive |
| CG32488 | 2 | 5.93 | 4.96 | 6275 | 6547 | inactive |
| Nha1 (Na[+]/H[+] hydrogen antiporter 1) | 1 | 4.81 | 16.1 | 5946 | 5429 | inactive |
| beat-IIIb (beaten path IIIb) | 1 | 1.28 | 6.32 | 7013 | 6279 | inactive |
| CG3213 | 1 | 4.6 | 12.7 | 5390 | 4951 | inactive |
| CG3213 | 2 | 2.96 | 2.58 | 6851 | 5891 | inactive |
| InR (Insulin-like receptor) | 1 | 4.04 | 5.35 | 6898 | 3383 | inactive |
| Ets65A (Ets at 65A) | 1 | 2.12 | 2.04 | 5981 | 5642 | inactive |
| Ets65A (Ets at 65A) | 2 | 5.75 | 4.88 | 6610 | 6817 | inactive |
| Ets65A (Ets at 65A) | 3 | 14.6 | 3.68 | 6509 | 6792 | inactive |
| Art6 (Arginine methyltransferase 6) | 1 | 1.93 | 1 | 6574 | 6599 | inactive |
| CG43325 | 1 | 6.52 | 6.52 | 6646 | 6257 | inactive |
| Tim17b2 (Translocase inner membrane 17) | 1 | 3.6 | 3.39 | 6713 | 6698 | inactive |
| Tim17b2 (Translocase inner membrane 17) | 2 | 10.8 | 23.1 | 3049 | 6428 | inactive |

Next part; the last 4 above are carried over.
| Gene | dsRNA no. | infection score, replicate 1 | infection score, replicate 2 | cell count, replicate 1 | cell count, replicate 2 | call |
| --- | --- | --- | --- | --- | --- | --- |
| Art6 (Arginine methyltransferase 6) | 1 | 1.93 | 1 | 6574 | 6599 | inactive |
| CG43325 | 1 | 6.52 | 6.52 | 6646 | 6257 | inactive |
| Tim17b2 (Translocase inner membrane 17) | 1 | 3.6 | 3.39 | 6713 | 6698 | inactive |
| Tim17b2 (Translocase inner membrane 17) | 2 | 10.8 | 23.1 | 3049 | 6428 | inactive |
| CatB (Catalase B) | 1 | 10.9 | 9.57 | 6079 | 5808 | inactive |
| CatB (Catalase B) | 2 | 2.54 | 3.03 | 6688 | 5745 | inactive |
| Tfb1 (Transcription factor B1) | 1 | 2.78 | 10.7 | 6018 | 6187 | inactive |
| Dlc90F (Dynein light chain 90F) | 1 | 3.09 | 3.03 | 5928 | 6402 | inactive |
| CG3306 | 1 | 5.77 | 2.28 | 6377 | 6322 | inactive |
| CG13377 | 1 | 8.75 | 1.48 | 5443 | 6802 | inactive |
| Cpr64Ad (Cuticular protein 64Ad) | 1 | 1.87 | 2.43 | 6096 | 5590 | inactive |
| Cpr64Ad (Cuticular protein 64Ad) | 2 | 5.89 | 9.52 | 6010 | 5643 | inactive |
| CG13085 | 1 | 3.47 | 3.36 | 5958 | 6674 | inactive |
| CG13085 | 2 | 7.57 | 4.82 | 6487 | 6431 | inactive |
| Alas (Aminolevulinate synthase) | 1 | 27.3 | 18.5 | 5744 | 5395 | inactive |
| Charon | 1 | 1.32 | 5.63 | 6972 | 5576 | inactive |
| CG14471 (retired record) | 1 | 7.84 | 28.4 | 6546 | 5685 | inactive |
| CG14471 (retired record) | 2 | 8.89 | 2.23 | 5680 | 5751 | inactive |
| CG30036 | 1 | 4.42 | 14.5 | 5887 | 5346 | inactive |
| CG14696 | 1 | 3.02 | 4.74 | 6334 | 6351 | inactive |
| CG8191 | 1 | 3.4 | 9.8 | 647 | 5421 | inactive |
| tap (target of Poxn) | 1 | 5.02 | 4.4 | 6420 | 6364 | inactive |
| CG32091 | 1 | 0.26 | 2.52 | 3120 | 6389 | inactive |
| Ctf4 (Chromosome transmission fidelity 4) | 1 | 8.34 | 7.63 | 5273 | 5845 | inactive |
| CG10970 | 1 | 5.55 | 1.62 | 6455 | 6486 | inactive |
